Measured values from several laboratories, pooled; numbers as filed in NIAID ChemDB.

Common to all: growth or infection tests; species: Mycobacterium tuberculosis

MIC bound: limit read from a one-dose screen. Neighbouring rows are from separate reports. Two numbers with a dash give a range or band. ECn is the concentration giving n% inhibition of infection, replication or growth. Blank or dashed fields: not listed here. Inhibition is in % at the dose shown (toxicity tests: loss of growth or viability). A number after MIC or MFC names an inhibition level or a share of isolates.

SMILES	endpoint	mutations	conditions	strain	method	dose	cells	result
O=c1nc2c(c(-c3cccc(Cl)c3)[nH]1)COC/C2=C/c1cccc(Cl)c1	MIC bound	-	-	H37Rv	BACTEC	-	-	>12.5 µg/mL
CC1CCCCN1c1cncc(C(=O)NN)n1	MIC	-	-	Capreomycin-resistant	-	-	-	125 µg/mL
CCCCCCCCCCNC1CC(=O)N(CCCCCCCCCC)C1=O	MIC	-	-	Clinical isolate (isoniazid-resistant)	-	-	-	≤20 µg/mL
CC[C@H]1OC(=O)[C@H](C)[C@@H](O[C@H]2C[C@@](C)(OC)[C@@H](O)[C@H](C)O2)[C@H](C)[C@@H](O[C@@H]2O[C@H](C)C[C@H](N(C)C)[C@H]2O)[C@](C)(O)C[C@@H](C)CN(C)[C@H](C)[C@@H](O)[C@]1(C)O	MIC90	-	-	Drug-resistant	-	-	-	>8 µg/mL
c1ccc(CCCNCCNCC(c2ccccc2)c2ccccc2)cc1	MIC	-	-	-	-	-	-	37.5 µM
C=C1CC(=O)N(CCCCCCCCC)C1=O	MIC	-	-	H37Ra	-	-	-	≤20 µg/mL
O=C(N/N=C/c1cccc(C(F)(F)F)c1)c1ccncc1	MIC	-	-	Ethambutol-resistant	-	-	-	0.1 µg/mL
C(=N\N=C(N/N=C/C1CNCCN1)N/N=C/C1CNCCN1)/C1CNCCN1	inhibition	-	-	H37Rv	BACTEC	12.5 µg/mL	-	11%
OCNC(=S)c1cncc(-n2ccnc2)n1	MIC	-	-	SP 607	-	-	-	500 µg/mL
CCCCCCCOc1c(C(C)=O)cc([N+](=O)[O-])c2nccc(CC)c12	MIC	-	-	H37Rv	-	-	-	1 µg/mL
O=C(NNCc1ccccc1)c1ccncc1	MIC	-	-	Ethambutol-resistant	-	-	-	0.2 µg/mL
O=[N+]([O-])c1ccc(Cl)c(C2SCc3nc4ccccc4n32)c1	inhibition	-	-	H37Rv	resazurin	6.25 µg/mL	-	11%
CCCCCCCCCN1C(=O)CCC1=O	MIC	-	-	Clinical isolate (isoniazid-resistant)	-	-	-	≤20 µg/mL
COc1ccc(OC)c(CCNCCNCc2cccc(F)c2)c1	MIC	-	-	-	-	-	-	12.5 µM
CC[C@@H](CO)NCCN[C@@H](CC)CO	MIC	-	-	M-4	resazurin	-	-	>8 µg/mL
CCCCCCCCCCCNCCNC(C)Cc1ccc(Cl)cc1	MIC	-	-	-	-	-	-	50 µM
O=[N+]([O-])c1cccc2c(C3CCCCC3)cc(C3CCCCC3)nc12	inhibition	-	-	H37Rv	-	6.25 µg/mL	-	99%
CCCc1cc(=O)[nH]c2c3c(c4c(c12)OC(C)(C)C=C4)O[C@H](C)[C@@H](C)[C@@H]3O	MIC bound	-	-	H37Rv	resazurin	-	-	>6.25 µg/mL
CC(C)=CCC/C(C)=C/CNCCNCCc1ccc(Cl)cc1Cl	MIC	-	-	-	-	-	-	50 µM
COc1cc2oc3cc(O)c(CCC(C)C)c(O)c3c(=O)c2c(CCC(C)C)c1OC	MIC	-	-	M27	resazurin	-	-	1.56 µg/mL
C[C@H](O)CNCCNCCc1ccccc1	MIC	-	-	-	-	-	-	50 µM
CCCCCCCCNC1CC(=O)NC1=O	MIC	-	-	H37Rv	-	-	-	≤20 µg/mL
O=C(N/N=C/c1cccc(F)c1)c1ccncc1	MIC	-	-	H37Rv (ethambutol-resistant)	-	-	-	≤2 µg/mL
O=[N+]([O-])c1cccc2ccc(C3CCCCC3)nc12	MIC	-	-	H37Rv	-	-	-	6.25 µg/mL
CCCOc1cc2oc3cc(O)c(CCC(C)C)c(O)c3c(=O)c2c(CCC(C)C)c1OC	MIC	-	-	H37Rv	resazurin	-	-	3.12 µg/mL
CC[C@H]1OC(=O)[C@H](C)[C@@H](O[C@H]2C[C@@](C)(OC)[C@@H](O)[C@H](C)O2)[C@H](C)[C@@H](O[C@@H]2O[C@H](C)C[C@H](N(C)C)[C@H]2O)[C@](C)(OC)C[C@@H](C)C(=O)[C@H](C)[C@@H](O)[C@]1(C)O	MBC	-	-	ATCC 35826	-	-	-	>8 µg/mL
C[C@]1(COc2ccc(-c3ccc(N4CCN(Cc5ccc(C(F)(F)F)cc5)CC4)cc3)cc2)Cn2cc([N+](=O)[O-])nc2O1	MIC	-	-	H37Rv	-	-	-	0.024 µg/mL
COc1c(C(C)=O)cc(N)c2ncccc12	inhibition	-	-	H37Rv	-	6.25 µg/mL	-	0%
CCCCCCCCCN1C(=O)CC(C)(SCCO)C1=O	MIC	-	-	H37Rv	-	-	-	≤20 µg/mL
CC(C)c1ccc2cccc([N+](=O)[O-])c2n1	MIC	-	-	H37Rv	-	-	-	>6.25 µg/mL
COc1ccc2[nH]cc(CCNCCNCc3cccc(C)c3)c2c1	MIC	-	-	-	-	-	-	50 µM
CCC(=O)Oc1cc2oc3cc(OC(=O)CC)c(OC)c(CCC(C)C)c3c(=O)c2c(O)c1CCC(C)C	MIC	-	-	H37Ra	resazurin	-	-	1.56 µg/mL
CC(NNC(=O)c1ccncc1)c1cccc(C(F)(F)F)c1	MIC	-	-	Isoniazid-resistant	-	-	-	>50 µg/mL
Cn1c(=O)[nH]c2nncnc2c1=O	inhibition	-	-	H37Rv	BACTEC	12.8 µg/mL	-	0%
CN[C@@H]1[C@H](O[C@H]2[C@H](O[C@H]3[C@H](O)[C@@H](O)[C@H](N=C(N)N)[C@@H](O)[C@@H]3N=C(N)N)O[C@@H](C)[C@]2(O)C=O)O[C@@H](CO)[C@H](O)[C@H]1O	MIC	-	-	3564/83 (streptomycin-resistant)	-	-	-	25–50 µg/mL
CC[C@@H](CO)NCCN[C@@H](CC)CO	MIC90	EJMCh4/1 MmpL3 (V285A)	-	H37Rv	visual reading / absorbance	-	-	7.7 µM
CCCCCCCCCN1C(=O)CC(SCCNC(=O)c2ccc(OCCCCCC)cc2)C1=O	MIC	-	-	H37Rv	-	-	-	≤20 µg/mL
Cc1ccc(S(=O)(=O)n2oc(=O)c(Cc3ccccc3)c2N)cc1	MIC bound	-	-	H37Rv	resazurin	-	-	>6.25 µg/mL
CO[C@H]1/C=C/O[C@@]2(C)Oc3c(C)c(O)c4c(O)c(c(/C=N/N5CCN(C)CC5)c(O)c4c3C2=O)NC(=O)/C(C)=C\C=C\[C@H](C)[C@H](O)[C@@H](C)[C@@H](O)[C@@H](C)[C@H](OC(C)=O)[C@@H]1C	MIC99	531Leu	-	-	-	-	-	≥640 µg/mL
CCC1=NC(N/N=C/c2ccco2)=N/C1=C/c1ccco1	inhibition	-	-	-	BACTEC	0.5 µM	-	0%
C/C(=N\NC(=O)c1ccncc1)c1ccccc1F	EC90	-	inside macrophages	Erdman	colony count	-	Macrophages	0.081 µg/mL
CC1(C)CC(N=c2cc3n(-c4cc(Cl)cc(Cl)c4)c4ccccc4nc-3cc2Nc2cc(Cl)cc(Cl)c2)CC(C)(C)N1	inhibition	-	inside macrophages	H37Rv	-	0.005 µg/mL	Macrophages	95%
C1CCCC(NCCNCC23CC4CC(CC(C4)C2)C3)CCC1	MIC	-	-	-	-	-	-	12.5 µM
CC1CN(c2cncc(C(N)=S)n2)CC(C)O1	MIC	-	-	H37Rv	-	-	-	62.5 µg/mL
CC(=O)c1cc([N+](=O)[O-])c2nc(C(C)C)ccc2c1C(C)C	MIC	-	-	Isoniazid-resistant	-	-	-	12.5 µg/mL
CCC/C(C)=N/NC(=S)SC	MIC	-	-	H37Rv	BACTEC	-	VERO	1.56 µg/mL
CCCCCCOc1c(C(C)=O)cc(N)c2nccc(CC)c12	inhibition	-	-	H37Rv	-	6.25 µg/mL	-	0%
Cc1cc2nc(CCC3CCCCC3)[nH]c2cc1C	MIC90	6B MmpL3 (V240A)	-	H37Rv	visual reading / absorbance	-	-	1.93 µM
CCCCCCCCCCN1C(=O)C=CC1=O	MIC	-	-	Clinical isolate (isoniazid-resistant)	-	-	-	≤20 µg/mL
CCOC(=O)CC(=O)Cc1oc2c(C(C)=O)c(O)c(C)c(O)c2c1C	MIC bound	-	-	H37Rv	BACTEC	-	-	>12.5 µg/mL
CC(=O)c1c(OCC(N)=O)cc2oc3cc(OCC(N)=O)c(CCC(C)C)c(O)c3c(=O)c2c1CCC(C)C	MIC	-	-	H37Ra	resazurin	-	-	>200 µg/mL
CO[C@H]1/C=C/O[C@@]2(C)Oc3c(C)c(O)c4c(O)c(c(/C=N/N5CCN(C)CC5)c(O)c4c3C2=O)NC(=O)/C(C)=C\C=C\[C@H](C)[C@H](O)[C@@H](C)[C@@H](O)[C@@H](C)[C@H](OC(C)=O)[C@@H]1C	MIC90	EJMCh6C MmpL3  (G253E)	-	H37Rv	visual reading / absorbance	-	-	0.6 µM
CCOC(=O)c1csc(-c2csc(CCNC(=O)c3ccccc3)n2)n1	MIC	-	-	H37Rv	BACTEC	-	-	≥12.8 µg/mL
COc1c(OCC(N)=O)cc2oc3cc(O)c(CCC(C)C)c(O)c3c(=O)c2c1CCC(C)C	MIC	-	-	H37Ra	resazurin	-	-	1.56 µg/mL
CCCCCCc1ccc(O)c(C=Nc2cc(Cl)c(Cl)cc2NS(=O)(=O)c2ccccc2)c1	inhibition	-	-	H37Rv	BACTEC	6.25 µg/mL	-	0%
CC1CCCCN1c1cncc(C(N)=O)n1	MIC	-	-	Capreomycin-resistant	-	-	-	500 µg/mL
C[C@]1(COc2ccc(N3CCN(C/C=C/c4cccc(Cl)c4Cl)CC3)cc2)Cn2cc([N+](=O)[O-])nc2O1	MIC	-	-	H37Rv	-	-	-	<0.012 µg/mL
C/C(=N\NC(=O)c1ccncc1)c1ccccc1	MIC	-	-	Ethambutol-resistant	-	-	-	0.2 µg/mL
CC1COc2c(N3CCN(C)CC3)c(F)cc3c(=O)c(C(=O)O)cn1c23	MBC	-	-	ATCC 35830	-	-	-	2 µg/mL
CC1(C)C2CCC(CN3C(=O)c4ccccc4C3=O)C1C2	MIC	-	-	H37Ra	-	-	-	≤20 µg/mL
O=[N+]([O-])c1ccc2c(c1)-c1ccccc1C1=NCCN12	inhibition	-	-	H37Rv	resazurin	6.25 µg/mL	-	47%
NC(=O)c1cncc(-n2ccnc2)n1	MIC	-	-	Capreomycin-resistant	-	-	-	1000 µg/mL
CC(=O)OCc1cc(=O)n(C)c2c3c4c(cc12)c(C)cc(=O)n4CO3	MIC	-	-	INH-r	-	-	-	3.2 µg/mL
CC(=O)c1cc([N+](=O)[O-])c2nc(C34CC5CC(CC(C5)C3)C4)ccc2c1	inhibition	-	-	H37Rv	-	6.25 µg/mL	-	0%
CN(C)CCNc1ccc(CO)c2oc3ccc(O)cc3c(=O)c12	MIC bound	-	-	H37Rv	BACTEC	-	-	>12.5 µg/mL
CC(=O)Oc1ccccc1C(=O)Nc1ncc([N+](=O)[O-])s1	MIC	-	-	ND	visual reading	-	-	20 µg/mL
CCCCCCCCOc1c(C(C)=O)cc([N+](=O)[O-])c2nccc(CC)c12	inhibition	-	-	H37Rv	-	6.25 µg/mL	-	2%
CCC[CH2][Sn]1([CH2]CCC)[O]C(=O)CN=C(C)c2ccccc2[O]1	MIC	-	-	EMB-R	-	-	-	6.3 µg/mL
COc1cc2oc3cc(O)c(O)c(CCC(C)C)c3c(=O)c2c(O)c1CCC(C)C	MIC	-	-	H37Ra	resazurin	-	-	25 µg/mL
COc1ccc(C2C=C(c3ccc4c(c3)OCO4)Oc3c2c(=O)oc2ccccc32)cc1OC	inhibition	-	-	H37Rv	BACTEC	12.5 µg/mL	-	22%
Oc1ccc(CCNCCNCc2ccccc2F)cc1	MIC	-	-	-	-	-	-	50 µM
NC1CCN(c2nc3c(cc2F)c(=O)c(C(=O)O)cn3-c2ccc(F)cc2F)C1	MIC90	-	-	MDR	-	-	-	>8 µg/mL
CCOc1cc2oc3cc(O)c(CCC(C)C)c(O)c3c(=O)c2c(CCC(C)C)c1OC	MIC	-	-	M11	resazurin	-	-	1.56 µg/mL
c1ccc(-c2ccc(-c3ccc(C4=NCCN4)cc3)o2)cc1	MIC bound	-	-	H37Rv	BACTEC	-	-	≤12.5 µg/mL
Cc1ccc(F)c(OCC2CCN(c3ccc(OC[C@@]4(C)Cn5cc([N+](=O)[O-])nc5O4)cc3)CC2)c1	MIC	-	-	H37Rv	-	-	-	0.024 µg/mL
CCCCCCN1C(=O)C=CC1=O	MIC	-	-	H37Rv	-	-	-	≤20 µg/mL
COc1ccc(C2CC(=O)c3c(cc(OC)c(OC)c3OC)O2)cc1	MIC bound	-	-	H37Rv	BACTEC	-	-	>12.5 µg/mL
CCOc1cc2oc3cc(O)c(OC)c(CCC(C)C)c3c(=O)c2c(O)c1CCC(C)C	MIC	-	-	H37Ra	resazurin	-	-	12.5 µg/mL
O=C(Nc1ccccc1)c1cc(S(=O)(=O)N2CCNNC2=O)c(S)cc1Cl	MIC bound	-	-	H37Rv	resazurin	-	-	>6.25 µg/mL
CN(Cc1cc2cc(Cl)ccc2o1)C1CCN(c2ccc(OC[C@@]3(C)Cn4cc([N+](=O)[O-])nc4O3)cc2)CC1	MIC	-	-	H37Rv	-	-	-	0.024 µg/mL
O=C(NC(N1CCN(c2cc3c(cc2F)c(=O)c(C(=O)O)cn3C2CC2)CC1)(C(F)(F)F)C(F)(F)F)c1ccccc1	inhibition	-	-	H37Rv	resazurin	6.25 µg/mL	-	100%
CC1(C)CC(N=c2cc3n(-c4ccc(Cl)cc4Cl)c4ccccc4nc-3cc2Nc2ccc(Cl)cc2Cl)CC(C)(C)N1	EC50	-	inside macrophages	H37Rv	-	-	Macrophages	<0.005 µg/mL

For reference, 6 entries again:

{"SMILES": "CC1(C)CC(N=c2cc3n(-c4ccc(Cl)cc4Cl)c4ccccc4nc-3cc2Nc2ccc(Cl)cc2Cl)CC(C)(C)N1", "endpoint": "EC50", "conditions": "inside macrophages", "strain": "H37Rv", "cells": "Macrophages", "result": "<0.005 µg/mL"}
{"SMILES": "CC(C)=CCC/C(C)=C/CNCCNCCc1ccc(Cl)cc1Cl", "endpoint": "MIC", "result": "50 µM"}
{"SMILES": "CC1COc2c(N3CCN(C)CC3)c(F)cc3c(=O)c(C(=O)O)cn1c23", "endpoint": "MBC", "strain": "ATCC 35830", "result": "2 µg/mL"}
{"SMILES": "C[C@H](O)CNCCNCCc1ccccc1", "endpoint": "MIC", "result": "50 µM"}
{"SMILES": "CCC[CH2][Sn]1([CH2]CCC)[O]C(=O)CN=C(C)c2ccccc2[O]1", "endpoint": "MIC", "strain": "EMB-R", "result": "6.3 µg/mL"}
{"SMILES": "O=[N+]([O-])c1ccc2c(c1)-c1ccccc1C1=NCCN12", "endpoint": "inhibition", "strain": "H37Rv", "method": "resazurin", "dose": "6.25 µg/mL", "result": "47%"}